From the supplement of paper PMC9931576
Human monoclonal antibodies against the spike receptor-binding domain (heavy:light variable regions). IC50 against pseudoviruses bearing the spike of naturally observed variants; lower = stronger; >10 µg/ml means not reached at the top dose. No active / inactive call. The stated detection limit is 0.0005 µg/ml; values near or below 0.001 µg/ml lie at the floor of the assay.

B1: BD55-6389 (protein)
chain 1: DVQLLVSGGGLVQPGGSLRLSCAASGFNFSTYAMTWVRQAPGKGLEWVSGITGSRGSTFHADSVKGRFTISRDISKNILYLQMSSLRAEDSAVYFCAKDSLPAVNYFYYYYGMDVWSHGTTVTVSS
chain 2: IALTQSPATLSLSPGDRATLSCRASQSVSSYLAWYQHKPGQAPRLLIYDASRRATGIPARFSGSGSGTDFTLTISSLEPEDFAVYYCQQRSNWPTFGGGTKVEIK
B2: BD55-1239 (protein)
chain 1: QVQLVQSGAEVKKPGSSVKVSCKASGDIYSTYASSWVRQAPGQGLEWMGRIIPVSGTVNYADNFQGRVTITADKSTSTAYMELRSLTSEDTAVYYCARDVARGGYSGYDFFDYYYGMDVWGQGTTVTVSS
chain 2: QSALTQPASVSGSPGQSITISCTGTSSDVGGYNYVSWYQQHPDKAPKLLIYDVNNRPSGVSTRFSGSKSGNTASLTISRLQTDDEADYSCSSYTSSNTWVFGGGTKLTVL
B3: BD55-6403 (protein)
chain 1: EVQLVESGGGLVQPGGSLRLSCAASGFTFRQYWMHWVRHVPGKGLVWVSRIDSDGSGAFYAGSVRGRFTVSRDNSKGTLYLQMNSLRAEDTAVYYCAREEGYYYHYMDVWGKGTTVTVSS
chain 2: DIQMTQSPSSLSASVGDRVTITCRASQSIGDYINWYQYKPGKAPKLLIYAATNLHSGVSSRFVGTGSGTDFTLTISGLQPDDFATYYCQQSYTTPPPTFGGGTKVEI
B4: BD55-6396 (protein)
chain 1: EVQLVESGGVVVQPGGSLRLSCAASGFTFDDYSMHWVRQAPGKGLEWVSIINWDGRSTYYADSVKGRFTISRDNSKKSLYLQMNSLRVEDTGLYYCAKDPHYYGSGSYYRGEYYYYYMDVWGKGTTVTVSS
chain 2: EIVLTQSPATLSLSPGERATLSCRASQSVDNYFAWYQQKPGQAPRLLISDASNRAPGIPARFSGSGSGTDFTLTISGIETEDFAVYYCQRRSTFGPGTRVDIK
B5: BD55-6391 (protein)
chain 1: QVQLVQSGAEVKKPGSSVKVSCKASGGTFSSYTISWVRQAPGQGLEWMGKIIPILGIASYAQRFQGRVTITADKSTSTAYLELSSLRSEDTAVYYCAREFCSGGSCSYNNWFDPWGQGTLVTVSS
chain 2: QSVLTQPPSVSGAPGQRVTISCTGSNSNIGAGYVVHWYQQLPGTAPKLLIYGNNNRPSGVPDRFSGSKSDTSASLAITGLQAEDEADYYCQSYDSSLTISGVFGGGTKLTVL
B6: BD55-6388 (protein)
chain 1: QVQLVQSGAEVKKPGSSVKVSCKASGDTFSKYAISWVRQAPGQGLEWMGGIIPIFGKANYAQKFQGRVTITADESTSTAYMQLSSLRSEDTAEYYCATLPFYDILTGYSKYYFDYWGQGTLVTVSS
chain 2: QSALTQPASVSGSPGQSITISCTGTNSDVGGYNYVSWYQRHPGKAPKLMIYDVSNRPSGVSNRFSGSKSGNTASLTISGLQTEDEADYYCSSYTSSSISVIFGGGTKLTVL

target: SARS-CoV-2 Omicron BA.1 spike pseudovirus; test: pseudovirus neutralization IC50; higher = weaker neutralization
Description: (§1)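 Single-round VSV luciferase pseudovirus mixed with antibody dilutions for 1 h and put on Huh-7 cells for about a day; IC50 from the dose curve.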

Row | Binder | pseudovirus neutralization IC50
1 | B1 | > 10 µg/mL
2 | B2 | 0.146 µg/mL
3 | B3 | > 10 µg/mL
4 | B4 | > 10 µg/mL
5 | B5 | 0.0615 µg/mL
6 | B6 | > 10 µg/mL

target: SARS-CoV-2 Omicron BA.2 spike pseudovirus; test: as above
Description: as §1

Row | Binder | pseudovirus neutralization IC50
7 | B1 | > 10 µg/mL
8 | B2 | > 10 µg/mL
9 | B3 | > 10 µg/mL
10 | B4 | > 10 µg/mL
11 | B5 | 0.031 µg/mL
12 | B6 | > 10 µg/mL

target: SARS-CoV-2 Omicron BA.2.75 spike pseudovirus; test: as above
Description: as §1

Row | Binder | pseudovirus neutralization IC50
13 | B1 | > 10 µg/mL
14 | B2 | > 10 µg/mL
15 | B3 | > 10 µg/mL
16 | B4 | > 10 µg/mL
17 | B5 | 0.0314 µg/mL
18 | B6 | > 10 µg/mL

target: SARS-CoV-2 Omicron BA.5 spike pseudovirus; test: as above
Description: as §1

Row | Binder | pseudovirus neutralization IC50
19 | B1 | > 10 µg/mL
20 | B2 | > 10 µg/mL
21 | B3 | > 10 µg/mL
22 | B4 | > 10 µg/mL
23 | B5 | > 10 µg/mL
24 | B6 | > 10 µg/mL

target: SARS-CoV-2 Omicron BQ.1.1 spike pseudovirus; test: as above
Description: as §1

Row | Binder | pseudovirus neutralization IC50
25 | B1 | > 10 µg/mL
26 | B2 | > 10 µg/mL
27 | B3 | > 10 µg/mL
28 | B4 | > 10 µg/mL
29 | B5 | > 10 µg/mL
30 | B6 | > 10 µg/mL

target: SARS-CoV-2 Omicron XBB spike pseudovirus; test: as above
Description: as §1

Row | Binder | pseudovirus neutralization IC50
31 | B1 | > 10 µg/mL
32 | B2 | > 10 µg/mL
33 | B3 | > 10 µg/mL
34 | B4 | > 10 µg/mL
35 | B5 | 0.241 µg/mL
36 | B6 | > 10 µg/mL

target: SARS-CoV-2 early D614G spike pseudovirus; test: as above
Description: as §1

Row | Binder | pseudovirus neutralization IC50
37 | B1 | > 10 µg/mL
38 | B2 | 0.0303 µg/mL
39 | B3 | > 10 µg/mL
40 | B4 | > 10 µg/mL
41 | B5 | 0.0425 µg/mL
42 | B6 | > 10 µg/mL
